Results as given in patent US9629899B2, “Targeted cargo protein combination therapy” (priority 2008, dated 2017).
Read-outs that look alike come from different tables or passages of the source.

Legend:
[1] = tested on: Panc-1 cell line; test: Protein synthesis inhibition assay (cytotoxicity), Panc-1; assay type: cell-based, human
[2] = phase 1 clinical trial, i.v. administration at 0.027 mg/m2; cited from earlier work
[3] = tested on: MIA-PaCa-2-GFP tumors; assay type: in vivo, nude mice
[4] = tested on: Capan-1 cells; assay type: cell-based, human; conditions: single agent
[5] = tested on: pancreatic cancer cell lines; test: Protein synthesis inhibition assay, panel of pancreatic cancer cell lines; assay type: cell-based, human; conditions: data not shown
[6] = tested on: HPAF-II cells; test: Protein synthesis inhibition assay (cytotoxicity), HPAF-II; assay type: cell-based, human
[7] = mice, i.v.; cited from earlier work
[8] = tested on: cancer cells expressing IL-4R cultured from clinical tumor sample; test: Cytotoxicity to tumor cells cultured from clinical PDA sample; assay type: cell-based, human; conditions: cancer cells expressing IL-4R cultured from clinical sample
[9] = tested on: PK-1 cell line; test: Protein synthesis inhibition assay (cytotoxicity), PK-1; assay type: cell-based, human
[10] = tested on: MIA-PaCa-2 cells; assay type: cell-based, human
[11] = cynomolgus monkeys, i.v. every alternate day for three injections; cited from earlier work
[12] = tested on: HS766T cells; test: Protein synthesis inhibition assay (cytotoxicity), HS766T; assay type: cell-based, human; conditions: single agent
[13] = tested on: ASPC-1 cell line; test: Protein synthesis inhibition assay (cytotoxicity), ASPC-1; assay type: cell-based, human
[14] = tested on: GFP transfected human pancreatic tumor cells (Hs766T); test: Repetitive therapy of orthotopic human pancreatic cancer (Hs766T-GFP); assay type: in vivo, nude mice
[15] = mice receiving optimal doses; data not shown
[16] = tested on: clinical pancreatic cancer sample xenograft; test: Advanced orthotopic pancreatic cancer model from a clinical sample, survival; assay type: in vivo; conditions: clinical sample in SCID mice, treatment from day 31; gemcitabine 150 mg/kg i.p. twice a week; PRX321 100 ug/kg i.p. twice a day days 31-35; non-treatment 62 days
[17] = tested on: MIA-PaCa-2-GFP tumors; test: Advanced metastatic pancreatic tumor model, orthotopic MIA-PaCa-2-GFP, whole-body imaging and survival; assay type: in vivo, nude mice

IL4(38-37)-PE38KDEL [PRX321]
IC50 (50% protein synthesis inhibition) [1]: < 10 ng/mL | Adverse effects reported [2]: reversible elevation of liver enzymes and injection site inflammatory reactions | Organ toxicity in heart, liver, lung, kidney, and spleen by histologic examination ([3]; PRX321-injected mice): did not observe any organ toxicity | Time after treatment for which rate of tumor growth (primary and metastasis lesions) was reduced ([3]; early model): 15 days | Day by which tumor recurred ([3]; early model, mice without lesions on day 14): ≤ 34 days | Tumor growth compared with non-treatment group (whole-body imaging) ([3]; early model, treatment from day 5, gemcitabine 150 mg/kg i.p. twice a week, PRX321 100 ug/kg i.p. twice a day for 5 days): reduction in the rate of tumor growth | Median survival time ([3]; early model, non-treatment group 27 days): 64 days | IC75 (75% protein synthesis inhibition) [4]: 22 ng/mL | Cytotoxic activity after incubation with an excess of IL-4 [5]: neutralized | IC50 (50% protein synthesis inhibition) [6]: ≥ 1,000 ng/mL | Well tolerated dose [7]: up to 475 Ag/kg | IC50 [8]: 0.32 ng/mL | IC50 (50% protein synthesis inhibition) [9]: ≥ 1,000 ng/mL | IC50 of PRX321 with added gemcitabine ([10]; adding 0.03 nmol/L gemcitabine): 0.012 ng/mL | IC50 of PRX321 with added gemcitabine ([10]; adding 0.3 nmol/L gemcitabine): 0.001 ng/mL | IC50 (50% protein synthesis inhibition) ([10]; single agent): 0.08 ng/mL | IC75 (75% protein synthesis inhibition) ([10]; single agent): 0.32 ng/mL | IC50 (50% protein synthesis inhibition) ([10]; single agent, listed as IL-4 cytotoxin): 0.065 ng/mL | Reasonably tolerated dose [11]: ≤ 200 Ag/kg | IC50 (50% protein synthesis inhibition) [12]: 13 ng/mL | IC50 (50% protein synthesis inhibition) [13]: < 10 ng/mL | Tumor volume compared to control ([14]; 100 ug/kg/day i.p. for one week): significantly decreased the tumor volume | Visible side effects ([14]; repetitive therapy): did not observe any visible side effects | Established pancreatic tumor growth ([14]; repetitive therapy: 100 ug/kg/day i.p. every alternate week for 3 weeks): dramatic regression | Visible signs of toxicity (weight loss, inactivity) [15]: no visible signs of toxicity | Median survival time [16]: 102 days | Time after treatment for which rate of tumor growth (primary and metastasis lesions) was reduced [17]: 9 days | Reduction in tumor size on day 28 compared with the no treatment group ([17]; day 28): 71.2% | Median survival time ([17]; non-treatment group 28 days): 43 days | Tumor growth compared with non-treatment group (whole-body imaging) ([17]; treatment from day 15, gemcitabine 150 mg/kg i.p. twice a week, PRX321 100 ug/kg i.p. twice a day for 5 days): reduction in the rate of tumor growth
